Source: paper PMC4057808, “Molecular characterization of Clonorchis sinensis secretory myoglobin: Delineating its role in anti-oxidative survival” (Parasites & Vectors, 2014)

Tested on: CCn1c(=NN=c2sc3cc(S(=O)(=O)O)ccc3n2CC)sc2cc(S(=O)(=O)O)ccc21
Assay: purified protein
Settings: H2O2 (0.2 mM in methods, ~20 μM in table note), 50 mM sodium phosphate pH 7.0, 20 °C, ABTS varied 20-300 mM as printed

rCsMb (CsMb, Clonorchis sinensis myoglobin) (Clonorchis sinensis; Y68A)
Km: 83 mM
